In ChEMBL document CHEMBL4828740, “Discovery of Quinoxaline-Based P1-P3 Macrocyclic NS3/4A Protease Inhibitors with Potent Activity against Drug-Resistant Hepatitis C Virus Variants” (J Med Chem, 2021):

System: Hepatitis C virus
Experiment: Antiviral activity against HCV genotype 1b harboring A156T mutant infected in human Huh7 cells incubated for 96 hrs by luciferase assay
Type: functional, organism-based, Hepacivirus hominis
Conditions: subtype 1b, Huh-7, 96 h

## CC(C)(C)[C@@H]1NC(=O)O[C@@H]2CCC[C@H]2OC/C=C/C(F)(F)c2nc3ccccc3nc2O[C@@H]2C[C@@H](C(=O)N[C@]3(C(=O)NS(=O)(=O)C4(C)CC4)C[C@H]3C(F)F)N(C2)C1=O
  EC50: 230 nM
